Common to all, as to assay: fold change of IC50 against reference virus; higher = more resistant; Cell-culture drug susceptibility tests of virus bearing the protease of each isolate, gathered from many studies.
Compound in one assay: CC(C)(C)NC(=O)[C@@H]1C[C@@H]2CCCC[C@@H]2CN1C[C@@H](O)[C@H](Cc1ccccc1)NC(=O)[C@H](CC(N)=O)NC(=O)c1ccc2ccccc2n1 [saquinavir]
Compound in the next assay: CC(C)c1nc(CN(C)C(=O)N[C@H](C(=O)N[C@@H](Cc2ccccc2)C[C@H](O)[C@H](Cc2ccccc2)NC(=O)OCc2cncs2)C(C)C)cs1 [ritonavir]
Compound in another assay: Cc1cccc(C)c1OCC(=O)N[C@@H](Cc1ccccc1)[C@@H](O)C[C@H](Cc1ccccc1)NC(=O)[C@H](C(C)C)N1CCCNC1=O [lopinavir]
Compound in a further assay: Cc1c(O)cccc1C(=O)N[C@@H](CSc1ccccc1)[C@H](O)CN1C[C@H]2CCCC[C@H]2C[C@H]1C(=O)NC(C)(C)C [nelfinavir]
Compound in a further assay: CC(C)(C)NC(=O)[C@@H]1CN(Cc2cccnc2)CCN1C[C@@H](O)C[C@@H](Cc1ccccc1)C(=O)N[C@H]1c2ccccc2C[C@H]1O [indinavir]

Fold change is the IC50 on the isolate divided by the IC50 on a reference virus; 1 = unchanged, higher = more resistant. Changes are given against the subtype B consensus. No active / inactive call. The values were gathered from many studies (numbered anew) with different assays, which the source does not name. Most viruses are clinical isolates; some are laboratory strains or clones with known resistance changes. Isolates with mixed residues are left out; stretches that were not sequenced show no change. Round top values that many isolates share are read here as limits; other very high values and 0.1 may be limits too. The protease changes I3V and N37S, insertions and deletions cannot be read from the source.

In the case of “HIV-1 isolate 176 (protease changes: I54V L63P V77I V82T I93L, study 7)”, the “fold change of IC50 against reference virus” value (“fold change of IC50” below) was found to be 0.6 with saquinavir; 6.5 with ritonavir; 3.3 in the assay with lopinavir; 2.3 with nelfinavir; 2.3 with indinavir.
For the test system “HIV-1 isolate 1301 (protease changes: I13V H69P I72V, study 15)”, the “fold change of IC50” value is 0.7 with saquinavir; 0.8 with ritonavir; 0.7 with lopinavir; 1 with nelfinavir; 0.7 in the assay with indinavir.
Regarding “HIV-1 isolate 483 (protease changes: L10I I13V K14R K20R L33F E35D M36I R41K F53L I54V D60E Q61G I62V L63P A71V G73S V82A L90M, study 109)”, the “fold change of IC50” value with saquinavir came out at 226; with ritonavir, 261; with lopinavir it was 121; with nelfinavir, 186; with indinavir, 55.
With “HIV-1 isolate 1365 (protease changes: N37E I54V D60E I64V V82A, study 7)”, the “fold change of IC50” value with saquinavir stood at 0.4; in the assay with ritonavir, 3.4; with lopinavir it was 1.2; in the assay with nelfinavir, 0.5; with indinavir it was 0.6.
As for “HIV-1 isolate 746 (protease changes: L38V R57K D60E Q61E L63P A71V I72V V77I I93L, study 109)”, the “fold change of IC50” value with saquinavir turned out to be 1; in the assay with ritonavir it was 0.8; with lopinavir, 0.6; in the assay with nelfinavir, 1.1; in the assay with indinavir it was 0.9.
As to “HIV-1 isolate 760 (protease changes: L10I K14R L24I M46I I54V L63P H69Q A71V V77I V82A I93M, study 116)”, the “fold change of IC50” value with saquinavir is 1.8; in the assay with ritonavir, 45; with lopinavir, 17; with nelfinavir, 19; with indinavir, 19.
As to “HIV-1 isolate 1295 (protease changes: L10F L19R K20M E34K M36I R41K I54V D60E I62V L63P A71V V77I V82S L90M I93L, study 109)”, the “fold change of IC50” value amounted to 9.4 with saquinavir; 85 with ritonavir; 53 with lopinavir; 20 with nelfinavir; 16 with indinavir.
Regarding “HIV-1 isolate 824 (protease changes: R41K A71T V77I, study 15)”, the “fold change of IC50” value with saquinavir came to 0.9; in the assay with ritonavir, 1; in the assay with lopinavir it was 0.7; with nelfinavir it was 1.6; with indinavir, 1.
As to “HIV-1 isolate 306 (protease changes: L33F E34Q I54V Q58E L63P A71V V77I V82A L90M I93L, study 7)”, the “fold change of IC50” value in the assay with saquinavir is 1.8; in the assay with ritonavir it was 59.5; in the assay with lopinavir it was 2.9; in the assay with nelfinavir, 9; with indinavir, 4.1.
For “HIV-1 isolate 101 (protease changes: L10F, study 30)” the same measures were 1.3, 1.1, 1.6, 1.3 and 1.5.
“HIV-1 isolate 362 (protease changes: L10V K20R E35D M36I K43T I54V I62V L63P I64V V82A L90M I93L, study 116)”: the “fold change of IC50” value with saquinavir is 5.9; in the assay with ritonavir, 77; with lopinavir, 18; with nelfinavir, 39; with indinavir it was 14.
Turning to “HIV-1 isolate 1328 (protease changes: E35D L63P I64L, study 109)”, the “fold change of IC50” value with saquinavir came out at 0.4; with ritonavir, 0.5; with lopinavir it was 0.3; with nelfinavir, 0.5; in the assay with indinavir, 0.3.
As to “HIV-1 isolate 550 (protease changes: L10S T12M I13V K14R G17E K20I E34K M36I Q61N I62M L63S C67E H69K V77I L89M, study 114)”, the “fold change of IC50” value amounted to 0.8 with saquinavir; 0.6 with ritonavir; 0.7 with lopinavir; 0.6 in the assay with nelfinavir; 0.7 with indinavir.
On to “HIV-1 isolate 1560 (protease changes: N37E F53I D60E I64V V82A, study 7)”, for which the “fold change of IC50” value turned out to be 0.7 in the assay with saquinavir; 7.7 with ritonavir; 1.7 with lopinavir; 1.8 with nelfinavir; 1.6 in the assay with indinavir.
With “HIV-1 isolate 226 (protease changes: L10I G48V I54V L63P A71V I72M V77I V82A L90M I93L, study 109)”, the “fold change of IC50” value with saquinavir is 92; with ritonavir, 34; with lopinavir it was 16; in the assay with nelfinavir, 27; with indinavir it was 19.
Turning to “HIV-1 isolate 546 (protease changes: L10V L23I M36I M46L I54V I62V L63P A71V V82A I84V L90M I93L, study 145)”, the “fold change of IC50” value in the assay with saquinavir came out at 41; with ritonavir, 63; in the assay with lopinavir, 26; with nelfinavir, 18; with indinavir, 6.1.
As for “HIV-1 isolate 386 (protease changes: L10I G48V I54V L63P A71V I72M V77I V82A L90M I93L, study 109)”, the “fold change of IC50” value with saquinavir was 143; with ritonavir it was 42; in the assay with lopinavir it was 21; in the assay with nelfinavir, 23; with indinavir, 24.
The matching figures for “HIV-1 isolate 806 (protease changes: I13V R41K I64V H69Y, study 15)”: 0.5, 0.7, 0.7, 0.8 and 0.6.
Turning to “HIV-1 isolate 974 (protease changes: L10V I13V L19P K20I E35D M36I R41K H69K L89M, study 114)”, the “fold change of IC50” value with saquinavir came out at 1.3; with ritonavir, 1.6; with lopinavir it was 1.2; with nelfinavir, 1.6; in the assay with indinavir, 0.9.
For the test system “HIV-1 isolate 25 (protease changes: I13V K14R I15V K20I M36I R41K I64M H69K L89M, study 114)”, the “fold change of IC50” value amounted to 0.7 with saquinavir; 0.8 in the assay with ritonavir; 0.8 with lopinavir; 1.1 with nelfinavir; 0.7 in the assay with indinavir.
With “HIV-1 isolate 325 (protease changes: L63P V77I I93L, study 7)”, the “fold change of IC50” value in the assay with saquinavir was determined as 0.9; with ritonavir it was 1.2; in the assay with lopinavir, 0.9; in the assay with nelfinavir, 1.9; in the assay with indinavir, 1.4.
For “HIV-1 isolate 1452 (protease changes: L10I I13V K14R K20R L33F E35D M36I R41K F53L I54V D60E Q61G I62V L63P A71V G73S V82A L90M, study 109)”, the “fold change of IC50” value amounted to 208 in the assay with saquinavir; 158 in the assay with ritonavir; 144 with lopinavir; 153 with nelfinavir; 59 with indinavir.
